Experimental findings from paper PMC7077986, “Molecular basis for catabolism of the abundant metabolite trans-4-hydroxy-L-proline by a microbial glycyl radical enzyme” (eLife, 2020) are described below.

In this data set the test system is O=C(O)[C@@H]1C[C@@H](O)CN1. Description: purified protein. To be noted: activated by HypD-AE, 20 mM Tris-HCl pH 7.5, 50 mM bicine, 100 mM KCl, 400 µM NADH, anaerobic.

As usually defined, the Km is the substrate concentration at which the rate is half of its maximum. For “HypD (trans-4-hydroxy-L-proline dehydratase; CdHypD) (Clostridioides difficile; T645A)”, the Km (kcat is glycyl radical-normalized (un-normalized 0.75 ± 0.01 s^-1)) stood at 4.9 ± 0.4 mM.

As for “HypD (trans-4-hydroxy-L-proline dehydratase; CdHypD) (Clostridioides difficile; Y450F)”, the Km (kcat is glycyl radical-normalized (un-normalized 0.33 ± 0.01 s^-1)) came to 19 ± 3 mM.
